The target of series [1] is T1, TIA-1b (rTIA-1) (Mus musculus) (UniProt P52912).
T1 sequence (looked up, limits assumed): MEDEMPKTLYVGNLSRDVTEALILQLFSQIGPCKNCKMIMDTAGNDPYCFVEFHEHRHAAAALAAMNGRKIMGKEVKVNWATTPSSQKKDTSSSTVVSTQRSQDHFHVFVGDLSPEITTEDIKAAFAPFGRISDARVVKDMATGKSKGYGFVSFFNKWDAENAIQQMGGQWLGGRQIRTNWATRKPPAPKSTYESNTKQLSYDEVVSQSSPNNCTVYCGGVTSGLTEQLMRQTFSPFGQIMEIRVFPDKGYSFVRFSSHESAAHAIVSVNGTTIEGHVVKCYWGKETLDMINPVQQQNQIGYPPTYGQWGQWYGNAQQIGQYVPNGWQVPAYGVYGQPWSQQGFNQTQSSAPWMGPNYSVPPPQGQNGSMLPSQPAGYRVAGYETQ
Kind of series: EMSA. Particulars: purified recombinant protein, protein details: C-terminal His6, label: 32P. (In general: In EMSA bound probe runs differently from free probe, usually more slowly.)

Series [2] concerns the target T2, TIARa (rTIAR) (Mus musculus) (UniProt P70318).
T2 sequence (looked up, limits assumed): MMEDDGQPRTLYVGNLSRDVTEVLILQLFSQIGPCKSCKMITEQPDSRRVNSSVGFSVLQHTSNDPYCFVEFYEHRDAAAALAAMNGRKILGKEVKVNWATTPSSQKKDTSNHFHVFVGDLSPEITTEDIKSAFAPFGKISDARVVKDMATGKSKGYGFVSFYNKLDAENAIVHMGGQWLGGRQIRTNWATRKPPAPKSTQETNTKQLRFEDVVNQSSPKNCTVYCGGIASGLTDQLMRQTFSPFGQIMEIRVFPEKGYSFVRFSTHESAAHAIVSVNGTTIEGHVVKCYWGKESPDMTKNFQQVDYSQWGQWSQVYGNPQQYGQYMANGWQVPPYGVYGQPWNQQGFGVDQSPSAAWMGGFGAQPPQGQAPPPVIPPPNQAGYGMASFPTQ
The experiment in a line: EMSA. As to conditions: purified recombinant protein; protein details: C-terminal His6; label: 32P; variant of WNV3'(-)SL RNA.

Another series deals with TIA-1 (p42). Kind of series: binding assay. Particulars: UV crosslinking then anti-TIA-1 immunoprecipitation; weaker band than TIAR; protein in an extract; label: 32P.
Another series relates to TIAR (p42). Kind of series: binding assay. Particulars: UV crosslinking then anti-TIAR immunoprecipitation; also RNA affinity column and MS identification; protein in an extract; label: 32P.

From US20090186842, “Methods and compositions for inhibition of viral replication” (published 2009) come the findings set out here.

The exact form of at least one protein or probe is not confirmed. For some of these results: At least one result comes from cells or an extract, where the contact may be indirect. For some of these results: Protein sequences can lack the tags named with them.

As to “CAGCUCGCACCGUGUUAAUUGUUGUUAAUCCUCACAAACAAAAAAAAGUUUGUCAGCUCACACAGGCGAACUACU [L3->As]”, the binding result in series [1] (variant of WNV3'(-)SL RNA) and in series [2] was “binds” each time.
As for “CAGCUCGCACCGUGUUAAUUGUUGUUAAUCCUCACAAACACUACUAAGUUUGUCAGCUCACACAGGCGAACUACU [WNV3'(-)SL RNA]”, the binding result in series [1] (50-900 nM protein, 0.2 nM RNA, 1 mM MgCl2, 30 mM KCl, RT) is “binds”.
On to “CAGCUCGCACCGUGUAAGUUGUUAAACAAACACUACUAAGUUUGUCAGCUCACACAGGCGAACUACU [delta L1, delta L2 with U25, U26, A27, A28 restored]”, for which the binding result in series [1] (variant of WNV3'(-)SL RNA) and in series [2] was “binds” each time.
With “CAGCUCGCACCGUGUUAAUUGUUGUUAAUCCUCACAAACACUACGUUUGUCAGCUCACACAGGCGAACUACU [delta L3 (UAA deleted)]”, the binding result in series [1] (variant of WNV3'(-)SL RNA) and in series [2] was “binds” each time.
As to “CCCCAGCUCGCACCGUGUUAAUUGUUGUUAAUCCUCACAAACACUACUAAGUUUGUCAGCUCACACAGGCGAACUACU [WNV 3'(-)SL RNA with 5' CCC]”, the binding result in the series on TIA-1 (p42) and in the series on TIAR (p42) was “binds” each time.
For the sequence “CAGCUCGCACCGUGUAAGUUGUUAACAAACACUACUAAGUUUGUCAGCUCACACAGGCGAACUACU [delta L1, delta L2 with U25, U26, A27 restored]”, the binding result in series [1] (variant of WNV3'(-)SL RNA) and in series [2] was “binds” in each case.
Turning to “CAGCUCGCACCGUGUUAAUUGUUGUUAAUCCUCACAAACCCCCCCCCGUUUGUCAGCUCACACAGGCGAACUACU [L3->Cs]”, the binding result in series [1] (variant of WNV3'(-)SL RNA) and in series [2] was “binds” in each case.
On to “CAGCUCGCACCGUGUAAAACGUUGAAAAAAAAAACAAACACUACUAAGUUUGUCAGCUCACACAGGCGAACUACU [L1+L2->As]”, for which the binding result in series [1] (variant of WNV3'(-)SL RNA) and in series [2] was “binds” throughout.
On to “CAGCUCGCACCGUGUUAAUUGUUGAAAAAAAAAACAAACACUACUAAGUUUGUCAGCUCACACAGGCGAACUACU [L2->As]”, for which the binding result in series [1] (variant of WNV3'(-)SL RNA) and in series [2] was “binds” each time.
Regarding “CAGCUCGCACCGUGUAAAACGUUGUUAAUCCUCACAAACACUACUAAGUUUGUCAGCUCACACAGGCGAACUACU [L1->As]”, the binding result in series [1] (variant of WNV3'(-)SL RNA) and in series [2] was “binds” each time.
